Anti-infective test results gathered from many reports (values: NIAID ChemDB through PubChem).

Common to all: growth or infection tests; species: Mycobacterium tuberculosis

An empty or dashed field is not shown.

smiles	strain	tested at	mutations	method	read-out	cell line	value
CCOc1ccc2ccccc2c1C=O	H37Rv				MIC		>100 µg/mL
CO[C@@]12[C@H](COC(N)=O)C3=C(C(=O)C(C)=C(N)C3=O)N1C[C@H]1[C@@H]2N1C(=O)/C=C/c1ccccc1	ETA-R				MIC		0.2 µg/mL
COc1ccc(C(=O)O)c(C(=O)c2cccc(C)c2O)c1OC	H37Rv				MIC		>100 µg/mL
CCOC(=O)c1cc(C)nc2c1c(=O)n(-c1ccccc1)c(=O)n2CCCCN1CCN(c2ccccc2)CC1	H37Rv	6.25 µg/mL		resazurin	inhibition		27%
CCc1nc2ccccc2n1CCCCOc1ccccc1Cl	H37Rv		QcrB M342T	turbidity / fluorescence	MIC90		87 µM
O=C(O)c1nc(C2CCCCC2)[nH]c1C1CCCCC1	H37Rv				MIC		>6.25 µg/mL
C[C@@H](NC(=O)[C@@H](N)Cc1ccccc1)[C@@H](Cc1ccccc1)B1OC2CC3CC(C3(C)C)[C@@]2(C)O1	H37Rv			agar	MIC		≤50 µg/mL
COc1ccccc1N1CCN(C(=O)c2c(C)n([O-])c3cc(Cl)c(Cl)cc3[n+]2=O)CC1	H37Rv	6.25 µg/mL			inhibition		0%
C=C1C(=O)O[C@@H]2C[C@H]1CC[C@]1(C)O[C@H]1CC/C(C)=C/CC[C@]2(C)O	H37Rv			BACTEC	MIC bound		>12.5 µg/mL
COc1ccc2nc(-c3ccccc3)cc(N/N=C/c3ccc(NC(C)=O)cc3)c2c1	H37Rv	12.5 µg/mL			inhibition	VERO	95%
CC(C)=NNC(=O)c1ccc[n+](C)c1	H37Rv				MIC		>100 µg/mL
Cc1cc2c(cc1C)[n+](=O)c(C(=O)NC(C)(C)C)c(C)n2[O-]	H37Rv				MIC		>6.25 µg/mL
Cc1ccc(OC/C(N)=N\NC(=O)c2ccncc2)cc1	16 isolates				MIC90		6.25 µg/mL
COC1C[C@H](C)[C@@H](OC)C2=CC(=O)C=C(NC(=O)/C(C)=C/C=C\[C@H](C)C(OC(N)=O)/C(C)=C/[C@@H](C)[C@@H]1OC)C2=O	ETA-R				MIC		12.5 µg/mL
O=C(O)c1nc(C2C3CC4CC(C3)CC2C4)[nH]c1C1C2CC3CC(C2)CC1C3	H37Rv	6.25 µg/mL			inhibition		0%
Cc1nc2ccccc2o1	H37Rv				MIC		>100 µg/mL
C[C@@H](B1OC2CC3CC(C3(C)C)[C@@]2(C)O1)[C@@H](Cc1ccccc1)NC(=O)[C@H](Cc1ccccc1)NC(=O)[C@@H](N)CCCCN	H37Rv			agar	MIC		≤50 µg/mL
CCCOc1ccccc1NC(=O)OCCN1CCCCC1	My 331/88				MIC		600 µM
NNC(=O)c1ccncc1	Clinical isolate 73-A		isoniazid rifampicin pyrazinamide resistant	resazurin / absorbance	MIC		4 µg/mL
CCOC(=O)c1nc(C2CCCCC2)[nH]c1C1CCCCC1	H37Rv				MIC		>6.25 µg/mL
CCCCCCOc1cccc(NC(=O)OCC[NH+]2CCCC2)c1	My 331/88				MIC		32 µM
CC1(C)C2CC3OB(C[C@@H](Cc4ccccc4)NC(=O)[C@H](N)CCCCN)O[C@]3(C)C1C2	H37Rv				MIC		≤500 µg/mL
C/C=C/c1ccc2oc(-c3ccc(O)c(OC)c3)c(C)c2c1	Clinical isolate 57			resazurin / absorbance	MIC		7.8 µg/mL
CCN(CC(N)=O)c1cccc(C)c1	H37Rv				MIC		>100 µg/mL
COc1cc(OC)c(/C=C2\N=C(c3ccccc3)OC2=O)c(OC)c1	H37Rv	12.5 µg/mL		BACTEC	inhibition		13%
O=C(O)c1ccc2cccnc2c1O	H37Rv				MIC		25 µg/mL
Cc1ccc2c(c1)[n+](=O)c(C(=O)N1CCN(c3ccccc3)CC1)c(C)n2[O-]	H37Rv	6.25 µg/mL			inhibition		0%
CCc1nc2ccccc2n1CCCCNc1ccc(OC)cc1	H37Rv		Rv1339 V90M	turbidity / fluorescence	MIC90		3 µM
C[C@@H](B1OC2CC3CC(C3(C)C)[C@@]2(C)O1)[C@@H](Cc1ccccc1)NC(=O)C(N)Cc1ccccc1	H37Rv				MIC		≤50 µg/mL
Cc1c(C(=O)Nc2ccccc2)[n+](=O)c2ccccc2n1[O-]	H37Rv				MIC	VERO	3.13 µg/mL
CCc1nc2ccccc2n1CCCCNc1ccc(-c2ccccn2)cc1	H37Rv		Rv1339 V90M	turbidity / fluorescence	fold resistance		12
Cc1cc2c(cc1C)[n+](=O)c(C(=O)N1CCN(c3ccc(Cl)cc3)CC1)c(C)n2[O-]	H37Rv	6.25 µg/mL			inhibition		0%
CCCOc1c(C(C)=O)cc([N+](=O)[O-])c2nccc(CC)c12	H37Rv	6.25 µg/mL			inhibition		0%
COc1ccccc1N1CCN(C(=O)c2c(C)n([O-])c3cc(C)c(C)cc3[n+]2=O)CC1	H37Rv				MIC		>6.25 µg/mL
Nc1ccc(C(=O)O)c(S)c1	H37Rv				MIC		>100 µg/mL
COc1ccc2nc(C)cc(N/N=C/c3ccc(OC)c4ccccc34)c2c1	H37Rv				MIC	VERO	1.56 µg/mL
CCCCCCOc1ccccc1NC(=O)OCCN1CCOCC1	My 331/88				MIC		32 µM
CC(C)CCCC(C)C1CCC2C3CC=C4CC(Cl)CCC4(C)C3CCC12C	H37Rv				MIC		>100 µg/mL
CC(=O)c1cc([N+](=O)[O-])c2nc(C(C)C)ccc2c1C(C)C	Rifampicin-resistant				MIC		12.5 µg/mL
Cc1cc(N/N=C/c2cc(C)n(-c3ccccc3)c2C)c2cc(C3CCCCC3)ccc2n1	H37Rv	12.5 µg/mL			inhibition	VERO	100%
Cc1c2oc3c(C)ccc(C(=O)OCCN4CCCCC4)c3nc-2c(C(=O)OCCN2CCCCC2)c(N)c1=O	H37Rv			BACTEC	MIC bound		>12.5 µg/mL
CCc1nc2ccc(C)cc2n1CCCNc1ccc(Br)c(C)c1	H37Rv		Rv1339 V90M	turbidity / fluorescence	MIC90		0.62 µM
Cn1c(=O)nc(N)n(NC(=O)CCl)c1=O	H37Rv	12.5 µg/mL		BACTEC	inhibition		12%
COc1ccc(/C=N/NC(=O)c2cnc(C3C4CC5CC(C4)CC3C5)[nH]2)cc1	H37Rv	6.25 µg/mL			inhibition		11%
O=P1(Cc2ccccc2)OC2CC(Cl)CC(C2)O1	H37Rv	12.5 µg/mL		BACTEC	inhibition		30%
C/C=C/c1ccc2oc(-c3ccc(OC)c(OC)c3)c(C)c2c1	Clinical isolate 91		isoniazid and streptomycin resistant	resazurin / absorbance	MIC		3.9 µg/mL
c1cnc2cc3oc4ccccc4c3cc2c1	H37Rv				MIC		25 µg/mL
CC(C)(O)C1=CC23CC(C)(C(=O)O)C4CCCCC4(C)C2CC1OO3.NC1CCCCC1	H37Rv	6.25 µg/mL			inhibition		14%
Cc1ccc2c(c1)[n+](=O)c(C(=O)Nc1ccccc1C)c(C)n2[O-]	H37Rv	6.25 µg/mL			inhibition		70%
C[C@]1(COc2ccc(N3CCC(Oc4ccc(OC(F)(F)F)cc4)CC3)cc2)Cn2cc([N+](=O)[O-])nc2O1	36 strains (INH-resistant)				MIC90		0.013 µg/mL
N/C(COc1cccc(Cl)c1)=N/NC(=O)c1ccncc1	16 isolates				MIC50		6.25 µg/mL
c1ccc2ncccc2c1	H37Rv				MIC		25 µg/mL
O=c1[nH]c(=O)n(C2CCOC2)cc1Br	H37Rv	12.5 µg/mL		BACTEC	inhibition		7%
CCOC(=O)c1nc(C(C)(C)C)[nH]c1C(C)(C)C	H37Rv	6.25 µg/mL			inhibition		0%
O=C(Nc1cccc(C(F)(F)F)c1)c1cc2ccccc2cc1O	H37Rv				MIC		>100 µg/mL
COC(=O)[C@H]1[C@H](O)[C@@H](C)[C@@H](O)[C@](C)(O)/C=C(\C)C2=C3C(=C(C)C(=O)c4c(O)c(c(C)c(OC(C)=O)c43)NC(=O)/C(C)=C/C=C\[C@@H](C)C(O)[C@@H](C)[C@H]1O)OCO2	H37Rv			BACTEC	MIC		≥12.5 µg/mL
CCCCCCCCOc1c(C(C)=O)cc(N)c2nccc(CC)c12	H37Rv	6.25 µg/mL			inhibition		10%
C/C=C/C=C/C(=O)O	H37Rv				MIC		>100 µg/mL
Cc1c(C(=O)Nc2ccccc2)[n+](=O)c2cc(Cl)c(Cl)cc2n1[O-]	H37Rv				MIC	VERO	<0.78 µg/mL
COc1ncc(F)c2nc(S(=O)(=O)Nc3ncccc3C(C)=O)nn12	M23		INH RIF resistant	visual reading	MIC50		0.5 µM
Cc1cc(NN)c2ccc(Cl)cc2n1	H37Rv				MIC	VERO	12.5 µg/mL
COC(=O)CCc1cnc(C2CCCCC2)[nH]1	H37Rv				MIC		>6.25 µg/mL
CN(C)CCCN1c2ccccc2Sc2ccc(Cl)cc21	Isolate C drug-resistant				MIC		30 µg/mL
COc1cc(C)c2sc3ccccc3c(=O)c2c1NCCCN(C)C	H37Rv			BACTEC	MIC	VERO	12.5 µg/mL
COc1ncc(F)c2nc(S(=O)(=O)Nc3c(O)cccc3C(C)O)nn12	X24		INH RIF resistant	visual reading	MIC50		0.5 µM
Cc1ccccc1NCS(=O)(=O)[O-].[Na+]	H37Rv				MIC		>100 µg/mL
CN(C)c1ccc(/C=C/c2ccnc3ccccc23)c(Cl)c1	H37Rv	12.5 µg/mL		BACTEC	inhibition		5%
Br.NCCCBr	H37Rv				MIC		>100 µg/mL
C/C=C1/C(=O)O[C@]23C=C[C@@H]4C(C(=O)OC)=CO[C@H](O[C@@H]12)[C@@H]43	MDR1 clinical isolate			MTT	MBC		2.5 µg/mL
CCCCCCCOc1cccc(NC(=O)OCCN2CCCCCC2)c1	My 331/88				MIC		4 µM
O=C(O)CCc1cnc(C2CCCC2)[nH]1	H37Rv	6.25 µg/mL			inhibition		0%
Cc1nc(Nc2ccccc2)sc1C(=O)NNc1ccc([N+](=O)[O-])cc1[N+](=O)[O-]	H37Rv			resazurin	MIC bound		>6.25 µg/mL
CCc1nc2ccc(C)cc2n1CCCCNc1ccc(C)cc1	H37Rv		WT	turbidity / fluorescence	MIC90		0.88 µM
O=[N+]([O-])c1ccc2c(c1)S(=O)(=O)c1ccccc1O2	H37Rv				MIC		>100 µg/mL
C[C@H]1CC[C@@H]2[C@@H](C)[C@H]3[C@H](C[C@H]4[C@@H]5CC=C6C[C@@H](O)CC[C@]6(C)[C@H]5C[C@H](O)[C@]34C)N2C1	H37Rv			BACTEC	MIC		≥12.8 µg/mL
COc1ccc(/C=N/Nc2ccnc3cc(Cl)cc(Cl)c23)c2ccccc12	H37Rv				MIC	VERO	>12.5 µg/mL
O=c1c2ccccc2c2nc3ccc4c(=O)c5ccccc5c5nc6ccc1c2c6c3c45	H37Rv	12.5 µg/mL		BACTEC	inhibition		23%
Cc1nc(-c2ccccc2O)[nH]c1C	H37Rv				MIC		50 µg/mL
C=C1C(=O)OC2CC(C)C3C4OC4C(O)C3(C)C(O)C12	H37Rv	12.5 µg/mL		BACTEC	inhibition		12%
CCc1nc2ccccc2n1CCCCOc1ccccc1	H37Rv		Rv1339 V90M	turbidity / fluorescence	MIC90		6.2 µM
COc1cc([N+](=O)[O-])ccc1NC(=O)C(C)Oc1ccc(C(C)(C)C)cc1	H37Rv				MIC		>100 µg/mL
Cc1cccc(OC/C(N)=N\NC(=O)c2ccncc2)c1	16 isolates				MIC50		12.5 µg/mL
Cc1ccc(S(=O)(=O)NCO)cc1	H37Rv				MIC		>100 µg/mL
COc1ccc2c(c1)c(CCN)c(C)n2C	H37Rv			resazurin	MIC bound		>6.25 µg/mL
CCCCOc1c(C(C)=O)cc([N+](=O)[O-])c2nccc(CC)c12	H37Rv	6.25 µg/mL			inhibition		0%
CCOC(=O)c1cnc(C23CC4CC(CC(C4)C2)C3)[nH]1	H37Rv				MIC		>6.25 µg/mL
Nc1cccc2ccc(C3CCCCC3)nc12	H37Rv				MIC		>6.25 µg/mL
CC1(C)COC2(OC1)C1=NS(=O)(=O)CC13CCC2C3(C)C	H37Rv	12.5 µg/mL		BACTEC	inhibition		5%
O=C(O)c1cnc(C2CCCCC2)[nH]1	H37Rv				MIC		>6.25 µg/mL
Cl.NCCN	H37Rv				MIC		>100 µg/mL
O=c1cc(CCl)[nH]nc1CCl	H37Rv			BACTEC	MIC bound		>12.5 µg/mL
CCOc1cccc(NC(=O)OCCN(C)C)c1	My 331/88				MIC		250 µM
S=C(Nc1ccccc1)Nc1ccc(NC(=S)Nc2ccccc2)cc1	H37Rv				MIC		>100 µg/mL

A number after MIC or MFC names an inhibition level or a share of isolates. Lines come from different laboratories, so protocols vary. Percent inhibition refers to the dose given; in toxicity tests it is the harm to the cells. MIC bound: limit read from a one-dose screen. Fold resistance: result on the changed form divided by that on wild type.